# Key:
# [1] = system: P. falciparum late stage (stages IV-V) gametocytes; test: P. falciparum late stage gametocyte ATP depletion assay (Pf GC-ATP)
# [2] = system: P. falciparum female gametocytes; test: P. falciparum female gametogenesis assay (Pf FGAA); details: unified cytotox / Pf FGAA IC50
# [3] = unified cytotox / Pf GC-ATP IC50, red: <10-fold selectivity, green: >10-fold
# [4] = unified cytotox / Pf GC-ATP IC50, <10-fold selectivity red, >10-fold green
# [5] = unified cytotox / IC50, <10-fold red, >10-fold green
# [6] = <10-fold selectivity red, >10-fold green
# [7] = red: <10-fold selectivity, green: >10-fold
Structure (SMILES),"Assay tox ratio Pf GC-ATP [1, 3]",other results
CC(C)CC(=O)N(Cc1ccc(-c2ccc(CNC3Cc4ccccc4C3)cc2)cc1)C1CCNCC1.O=C(O)C(F)(F)F [TCMDC-141449],9.79,–
N=C(N)Nc1nc(-c2ccc(NC(=O)Nc3cccc(-c4csc(NC(=N)N)n4)c3)cc2)cs1 [TCMDC-139559],17.48,–
CCc1cc(COc2ccc(CNCCC(C)C)cc2I)c(OCc2ccccc2)c(COc2ccc(CNCCC(C)C)cc2I)c1.Cl [TCMDC-137255],5.71,–
NCc1ccc(CNCc2cccc(-c3ccc(-c4nc5ccccc5[nH]4)cc3)c2)cc1.O=C(O)C(F)(F)F [TCMDC-132815],45.14,–
Oc1c(C(Nc2nc3ccccc3s2)c2ccc(OC(F)F)cc2)ccc2cccnc12 (stereo not drawn) [TCMDC-124379],–,"Assay tox ratio Pf GC-ATP [1, 4]: 54.77"
O=C(C1CC1c1ccccc1)N(Cc1ccc(-c2ccc(CNCCc3ccccc3)cc2)cc1)C1CCNCC1.O=C(O)C(F)(F)F (stereo not drawn) [TCMDC-141443],17.40,–
COc1ccc2c(=NN=Cc3ccc(OC)c4ccccc34)cc(C)[nH]c2c1 [TCMDC-142218],10.16,–
Cc1cc(NCCCCCCNc2cc(C)nc3c(C)cccc23)c2cccc(C)c2n1.Cl [TCMDC-125702],7.54,–
C[C@H]1CN(Cc2cccc(-c3cc(CNC(=O)c4cccc(CC5CCN(C)CC5)c4)ccc3F)c2)CCN1C [TCMDC-136349],8.20,–
Cl.Ic1cc(CNC2CCCCC2)ccc1OCc1cccc(COc2ccc(CNC3CCCCC3)cc2I)c1 [TCMDC-137261],75.00,–
Fc1ccc2[nH]c(-c3ccc(-c4ccc(CNCCN5CCNCC5)cc4)s3)nc2c1.O=C(O)C(F)(F)F [TCMDC-132869],47.17,–
CC(C)CCNC(=N)Nc1ccc(OCCCCCOc2ccc(NC(=N)NCCC(C)C)cc2)cc1 [TCMDC-137614],49.34,–
Cc1cccc(-c2nc(Nc3ccncc3)c3cc(N(C)C)ccc3n2)n1 [TCMDC-135308],9.40,–
COc1cc2ccccc2cc1OCCCN1CCN(CC(c2ccc(F)cc2)N2CCN(C(C)C)CC2)CC1.Cl (stereo not drawn) [TCMDC-135496],2.99,–
O=C(Nc1ccc(N2CCNCC2)cc1)c1ccn2ncc(-c3cccc(Cl)c3)c2n1 [TCMDC-132663],6.35,–
COc1ccc2nc3cc(Cl)ccc3c(NCCCCCCNc3c4ccc(Cl)cc4nc4ccc(OC)cc34)c2c1.Cl.Cl.Cl.Cl [TCMDC-137503],500.00,–
O=[N+]([O-])c1ccc(C=NNc2nc(Nc3ccccc3)nc(Nc3ccccc3)n2)o1 [TCMDC-125802],11.35,–
COc1cccc(NC(=O)[C@H](C(C)C)n2c(=O)[nH]c3ccccc3c2=O)c1 [TCMDC-125133],–,"Assay tox ratio Pf GC-ATP [1, 5]: 186.05"
Cc1cccc2nc(-c3cccc(-c4cccc(CNCCN5CCNCC5)c4)c3)[nH]c12.O=C(O)C(F)(F)F [TCMDC-132873],15.62,–
CCCCN1CCN(CCCCNc2c3ccccc3nc3ccccc23)CC1.Cl [TCMDC-137569],10.66,–

Structure (SMILES),"Assay tox ratio Pf GC-ATP [1, 3]",other results
COc1ccc(NC(=O)C2c3ccccc3C(=O)N(CC(C)C)C2c2cccs2)cc1OC (stereo not drawn) [TCMDC-125289],58.59,–
Br.C=CCNC(CCCCC)c1ccc(OCCOc2ccc(C(CCCCC)NCC=C)cc2)cc1 (stereo not drawn) [TCMDC-137483],6.41,–
O=c1c(Br)ccccc1Br [TCMDC-142246],–,"Assay tox ratio Pf GC-ATP [1, 5]: 66.27"
CC(CCCCC(=O)Nc1ccc(CC(C)NCCc2cccc(Cl)c2)cc1)NCCc1cccc(Cl)c1 (stereo not drawn) [TCMDC-139799],3.98,–
COc1cc2ccccc2c(OC)c1CNCCCCCCNCc1c(OC)cc2ccccc2c1OC.CS(=O)(=O)O [TCMDC-137843],13.32,–
CN(C)Cc1ccc(-c2cccc(Nc3nccc(NCC(O)c4ccccc4)n3)c2)cc1 (stereo not drawn) [TCMDC-136467],6.52,–
COc1ccc(-c2cnn3ccc(Nc4cc(OC)c(OC)c(OC)c4)nc23)cc1OC [TCMDC-134383],7.98,–
COc1ccc(CNCc2ccc(F)cc2)cc1-c1ccc(S(=O)(=O)NCCN2CCCC2)cc1.O=C(O)C(F)(F)F [TCMDC-132294],5.36,–
COc1ccc(CNCc2ccc(F)cc2)cc1-c1ccc(OC)c(S(=O)(=O)NCCN2CCCC2)c1.O=C(O)C(F)(F)F [TCMDC-132295],15.91,–
COc1cc2nc(NCC3CCN(c4nc(N)c5cc(OC)c(OC)cc5n4)CC3)nc(N)c2cc1OC [TCMDC-138723],17.61,–
COc1ccc(C[C@H](N)C(=O)N[C@H]2[C@@H](O)[C@H](n3cnc4c(N(C)C)ncnc43)O[C@@H]2CO)cc1.Cl [TCMDC-123927],–,"Assay tox ratio Pf GC-ATP [1, 4]: 4.16"
Cc1nn(CC(C)C)c2sc(C(=O)N3CCN(S(=O)(=O)c4ccc(C#N)cc4)CC3)cc12 [TCMDC-125045],11.94,–
Cl.c1ccc2c(CNCCCN3CCN(CCCNCc4c5ccccc5cc5ccccc45)CC3)c3ccccc3cc2c1 [TCMDC-137909],59.81,–
COc1ccc(CNCCc2cccs2)cc1-c1cccc(S(=O)(=O)NCCN2CCCC2)c1.O=C(O)C(F)(F)F [TCMDC-132479],6.81,–
CCOCn1c(-c2ccccc2)cc2c3c(N)nc(N)nc3ccc21 [TCMDC-137979],–,"Assay tox ratio Pf GC-ATP [1, 5]: 4.01"
O=C(Nc1ccc(Cl)c(Cl)c1)Nc1ccccc1N1CCNCC1.O=C(O)C(F)(F)F [TCMDC-133727],1.51,–
CC(C)CNCc1cccc(-c2cccc(CN(CCCN3CCN(C)CC3)C(=O)CCC3CCCC3)c2)c1.O=C(O)C(F)(F)F [TCMDC-140554],7.58,–
Cc1ccc(-n2c(C)nc3c(Nc4ccc(-c5ccncc5)cc4)ncnc32)c(C)c1 [TCMDC-136289],46.88,–
CCn1c(-c2nonc2N)nc2c(-c3cccc(NC(=O)Nc4cccc(C#N)c4)c3)ncc(OCCCN)c21.O=C(O)C(F)(F)F [TCMDC-136195],7.03,–
CCn1c(-c2nonc2N)nc2c(-c3cccc(NC(=O)NC45CC6CC(CC(C6)C4)C5)c3)ncc(OCCCN)c21.O=C(O)C(F)(F)F [TCMDC-136246],–,"Assay tox ratio Pf FGAA [2, 6]: 4.47"

Structure (SMILES),"Assay tox ratio Pf GC-ATP [1, 3]",other results
NCc1ccc(CNCc2ccc(-c3ccc(-c4nc5cc(C(F)(F)F)ccc5[nH]4)s3)cc2)cc1.O=C(O)C(F)(F)F [TCMDC-132814],–,"Assay tox ratio Pf FGAA [2, 6]: 8.12"
CC(C)c1ccc(CN2CCC(CNC(=O)c3cc(-c4ccccc4F)cs3)C2)cc1.O=C(O)C(F)(F)F (stereo not drawn) [TCMDC-134436],–,"Assay tox ratio Pf FGAA [2, 6]: 8.46"
Cc1cc(I)ccc1Nc1nc2nonc2nc1Nc1ccc(I)cc1C [TCMDC-124083],–,"Assay tox ratio Pf FGAA [2, 6]: 0.86"
CCCN(CC1CC1)c1ncc(-c2cccc(CNCCC3CCCN3C)c2)cn1 (stereo not drawn) [TCMDC-133142],–,"Assay tox ratio Pf FGAA [2, 6]: 1.42"
CC(C)Cn1cc(C2CCN(CCN3CCC(CNC(=O)c4ccc(-c5ccc(C(F)(F)F)cc5)cc4)CC3)CC2)c2ccccc21 [TCMDC-138852],–,"Assay tox ratio Pf FGAA [2, 7]: 5.47"
Cc1cc(C(F)(F)F)cc(-n2ncc(-c3ccc(C(=O)NCc4ccccc4N)cc3)c2N)n1.O=C(O)C(F)(F)F [TCMDC-136658],–,"Assay tox ratio Pf FGAA [2, 6]: 18.37"
CCOc1ccc2c(=NN=Cc3cc(OC)c(OC)cc3OC)cc(C)[nH]c2c1 [TCMDC-142207],–,"Assay tox ratio Pf FGAA [2, 7]: 9.97"
O=C(O)C(F)(F)F.O=S(=O)(NCCN1CCCC1)c1ccc(-c2cccc(CNC3Cc4ccccc4C3)c2)cc1 [TCMDC-132215],–,"Assay tox ratio Pf FGAA [2, 6]: 2.38"
Cc1cc2nc(N=C3NC4(c5ccccn5)NC(=Nc5nc6cc(C)c(C)cc6[nH]5)NC4(c4ccccn4)N3)[nH]c2cc1C.O=C(O)C(F)(F)F (stereo not drawn) [TCMDC-139105],–,"Assay tox ratio Pf FGAA [2, 7]: 6.73"
O=C(/C=C/c1ccc(Cl)c(Cl)c1)N1CCC(CN2CCC(c3c[nH]c4ccncc34)CC2)CC1 [TCMDC-140074],–,"Assay tox ratio Pf FGAA [2, 7]: 6.11"
COc1cc2c(OC)cccc2cc1CNCCCCCCNCc1cc2cccc(OC)c2cc1OC.CS(=O)(=O)O [TCMDC-137945],–,"Assay tox ratio Pf FGAA [2, 6]: 2.69"
Cl.N[C@@H](CCNC1CCN(c2cccc(C(F)(F)F)c2)CC1)Cc1ccc(F)c(F)c1 [TCMDC-132301],–,"Assay tox ratio Pf FGAA [2, 6]: 8.50"
CCCCOc1c(CNCCCCCCNCc2ccc3ccccc3c2OCCCC)ccc2ccccc12.CS(=O)(=O)O [TCMDC-137975],–,"Assay tox ratio Pf FGAA [2, 6]: 1.48"
CC(C)(C)OC(=O)NCc1ccc(Nc2nnc(-c3cccc(C(=O)NCc4cc(C(F)(F)F)cc(C(F)(F)F)c4)c3)o2)cc1 [TCMDC-135229],–,"Assay tox ratio Pf FGAA [2, 6]: 6.82"
CCc1ccccc1-c1csc(C(=O)NCC2CCN(Cc3ccc(C(C)(C)C)cc3)C2)c1.O=C(O)C(F)(F)F (stereo not drawn) [TCMDC-134448],–,"Assay tox ratio Pf FGAA [2, 6]: 6.39"
COc1ccccc1-c1nc2c(ccc3nc(N)nc(N)c32)[nH]1 [TCMDC-137976],–,"Assay tox ratio Pf FGAA [2, 6]: 2.53"
CCCCSc1c(CNCCCCCCNCc2ccc3ccccc3c2SCCCC)ccc2ccccc12.CS(=O)(=O)O [TCMDC-137825],–,"Assay tox ratio Pf FGAA [2, 6]: 2.85"
Cl.Fc1cc(Cl)ccc1Nc1ccnc2cc(-c3ccc(CN4CCNCC4)o3)ccc12 [TCMDC-138394],–,"Assay tox ratio Pf FGAA [2, 6]: 6.32"
CC(C)Cn1cc(C2CCN(CCN3CCC(CNC(=O)c4ccc(-c5ccc(C#N)cc5)cc4)CC3)CC2)c2ccccc21 [TCMDC-138849],–,"Assay tox ratio Pf FGAA [2, 7]: 4.67"
CCCC(=O)NC(c1ccc(C(C)C)cc1)c1ccc2cccnc2c1O (stereo not drawn) [TCMDC-123884],–,"Assay tox ratio Pf FGAA [2, 6]: 64.88"

# From article PMC6753678, “Fueling Open Innovation for Malaria Transmission-Blocking Drugs: Hundreds of Molecules Targeting Early Parasite Mosquito Stages” (Frontiers in Microbiology, 2019)
